Where “and” joins values, the source holds several entries; their conditions need not be identical. Equal values may be shown once. HELM strings list residues between dots; [ac] is acetyl, [am] amide, other brackets name non-standard units.
Assay: general procedure: Fmoc solid-phase peptide synthesis; Rink amide resin, loading 0.53 mmol/g; HBTU (3 equiv) / DIEA (6 equiv) in DMF
Settings: 210 nm

Substance | final HPLC purity (conjugation step) | final HPLC purity (whole synthesis, run 1)
CmX-PEG4--DKEWILQKIYELMRILDELGHAEASMRVEDLIYEFMK-CONH2 | 98% | –
PEPTIDE1{[ac].D.K.E.W.I.L.Q.K.I.Y.E.L.M.R.I.L.D.E.L.G.H.A.E.A.S.M.R.V.E.D.L.I.Y.E.F.M.K.[am]}$$$$V2.0 | – | 99% and 97%

Reference: PMC12428505 (International Journal of Molecular Sciences, 2025)
